Measured values from several laboratories, pooled; numbers as filed in NIAID ChemDB.

Common to all: whole-cell or culture tests; species: Varicella zoster virus; read-out: EC50

Conditions beyond the fields shown may differ between rows.

smiles | strain | cells | read by | value
CC1(C)[C@H](CCO)C[C@@H]1n1nnc2c(N)ncnc21 | OKA (TK+) | - | plaque count | 3.2 µg/mL
CCc1cn([C@H]2C[C@H](O)[C@@H](CO)O2)c(=O)[nH]c1=O | VEX411 | HEF | cytopathic effect | 7 µg/mL
C=Cc1cn([C@@H]2O[C@H](CO)[C@@H](O)[C@@H]2O)c(=S)nc1N | Kanno-Kohmura (TK-) | MRC-5 | plaque count | >266.3 µM
O=C(O)CP(=O)(O)O | Oka penciclovir-resistant/A | HEL | cytopathic effect | 236.3 µM
CCc1cn([C@@H]2O[C@H](CO)[C@@H](O)[C@@H]2O)c(=S)[nH]c1=O | HOSEN (TK+) | MRC-5 | plaque count | >264.9 µM
O=c1[nH]c(=O)n([C@H]2C[C@H](O)[C@@H](CO)O2)cc1/C=C/I | Ohtomo | HEF | plaque count | 0.0031 µg/mL
O=C(O)P(=O)(O)O | Clinical isolate VZV-20 | HEL | cytopathic effect | 95.3 µM
N#Cc1ccc(-c2cc3ccccn3c2)cc1 | G-31 | MRC-5 | plaque count | 5 µM
Nc1ncnc2c1ncn2C[C@@H](CO)OCP(=O)(O)O | Oka BVDU-resistant | HEL | cytopathic effect | 0.08 µM
C=Cc1cn([C@H]2C[C@H](O)[C@@H](CO)O2)c(=S)[nH]c1=O | Kanno-Kohmura (TK-) | MRC-5 | plaque count | >290.3 µM
CC1(C)[C@H](CCO)C[C@@H]1n1cnc2c(N)ncnc21 | YS (TK+) | - | plaque count | 28 µg/mL
CC(=O)c1c(-c2ccc(OC(F)(F)F)cc2)cc2ccccn12 | G-31 | MRC-5 | plaque count | >40 µM
Nc1nc2c(ncn2COCCO)c(=O)[nH]1 | YS/R (TK-) | - | plaque count | 2.5 µg/mL
O=c1[nH]c(=O)n([C@@H]2O[C@H](CO)[C@@H](O)[C@@H]2O)cc1/C=C/Cl | Kawaguchi (BrdU-resistant) | - | plaque count | >0.1 µg/mL
O=C(NCc1ccc(Cl)cc1)c1c[nH]c2c(F)cccc2c1=O | STE | - | plaque count | 0.9 µM
Brc1sccc1-c1cc2ccccn2c1 | G-31 | MRC-5 | plaque count | 10 µM
Cc1cn([C@H]2C[C@H](O)[C@@H](CO)O2)c(=S)nc1N | HOSEN (TK+) | MRC-5 | plaque count | 36.1 µM
O=c1[nH]c(=O)n([C@H]2C[C@H](O)[C@@H](CO)O2)cc1I | HIRAI | HEF | plaque count | 0.2 µg/mL
O=[N+]([O-])c1cccc(-c2cc3ccccn3c2)c1 | G-31 | MRC-5 | plaque count | >25 µM
O=c1[nH]c(=O)n([C@H]2C[C@H](O)[C@@H](CO)O2)cc1/C=C/Br | Kanno-Kohmura (TK-) | HEF | plaque count | ≥56 µg/mL
Nc1nc(F)nc2c1ncn2[C@@H]1C=C(CO)[C@@H](O)[C@H]1O | 07/1 YS/R (TK-) | E6SM | cytopathic effect | 40 µg/mL
CC(=O)c1ccc2cc(-c3ccccc3)cn2c1 | G-31 | MRC-5 | plaque count | >50 µM
Nc1nc2c(ncn2COC(CO)CO)c(=O)[nH]1 | Oka PFA-resistant/B | HEL | cytopathic effect | 1.2 µM
COC(=O)c1ccc2cc(-c3ccccc3)cn2c1 | G-31 | MRC-5 | plaque count | >40 µM
O=C(O)CP(=O)(O)O | Kawaguchi acyclovir-resistant mutant A8 | - | plaque count | 1.59 µg/mL
C=Cc1cn([C@@H]2O[C@H](CO)[C@@H](O)[C@@H]2O)c(=S)[nH]c1=O | HOSEN (TK+) | MRC-5 | plaque count | >266.3 µM
Cn1cc(C(=O)NCc2ccc(Cl)cc2)c(=O)c2cc(CN3CCOCC3)ccc21 | MA varicella isolate | HFF | plaque count | 0.5 µM
CCCCCCCCc1cc2cn([C@H]3C[C@H](O)[C@@H](CO)O3)c(=O)nc2o1 | YS (TK-) | - | - | >50 µM
Nc1nc(=S)n([C@@H]2O[C@H](CO)[C@@H](O)[C@@H]2O)cc1CO | HOSEN (TK+) | MRC-5 | plaque count | 133.3 µM
Cc1cn([C@@H]2O[C@H](CO)[C@H]2CO)c(=O)[nH]c1=O | OKA | HFF | plaque count | 0.02 µg/mL
Cc1cn([C@@H]2O[C@H](CO)[C@@H](O)[C@@H]2O)c(=S)nc1N | HOSEN (TK+) | MRC-5 | plaque count | 162.3 µM
Nc1nc2c(ncn2CCC(CO)CO)c(=O)[nH]1 | Clinical isolate VZV-33 | HEL | cytopathic effect | 2.49 µM
CC(NC(=S)Nc1ccc(NC(=O)c2ccccc2F)cc1C#N)c1ccc(F)cc1 | JAB1244 | HFF | ELISA | 0.18 µg/mL
CCc1cn([C@@H]2O[C@H](CO)[C@@H](O)[C@@H]2O)c(=S)nc1N | Kanno-Kohmura (TK-) | MRC-5 | plaque count | >264.9 µM
O=C(O)c1ccc2cc(-c3ccccc3)cn2c1 | G-31 | MRC-5 | plaque count | >40 µM

A second listing of 3 rows from above:

smiles,strain,cells,read by,value
Nc1nc(=S)n([C@@H]2O[C@H](CO)[C@@H](O)[C@@H]2O)cc1CO,HOSEN (TK+),MRC-5,plaque count,133.3 µM
O=C(O)c1ccc2cc(-c3ccccc3)cn2c1,G-31,MRC-5,plaque count,>40 µM
Nc1nc2c(ncn2COCCO)c(=O)[nH]1,YS/R (TK-),-,plaque count,2.5 µg/mL

An empty or dashed field is not shown. ECn: concentration that inhibits the pathogen or its effect by n%.